Laboratory results: PubChem BioAssay AID1259414 (Drosophila RNAi Screening Center, 2018)
In all, the deposit lists about 24,000 reagents; this is a random part of those with a known target gene and a result. In the full data, about 1,210 (5%) were called active. 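Inactive calls also include excluded dsRNAs with several or no targets, genes unexpressed in JW18, and well A1, regardless of score.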 A number with no mark means an inactive call. Names joined by + are all predicted targets of the reagent.

Assay: 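Genome-wide screen for host control of endosymbiont load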 (primary screen)
Cells: Drosophila JW18 cells infected with Wolbachia
Reagent: long dsRNA against Drosophila genes, 0.25 µg dsRNA per well of a 384-well plate
Duration: 5 days
Conditions: cells persistently infected with Wolbachia before knock-down; no added drug
Measured: 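Imaged fluorescence in situ signal for Wolbachia 23S rRNA per DAPI-counted host cell, given as a robust z-score within each plate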
Scale: Wolbachia per cell robust z: higher = more Wolbachia per host cell than the plate typical
Active means: 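Hit when robust z is 1.5 or more, or -1.5 or less, in at least two of three replicates; excludes dsRNAs with several or no targets, genes not expressed in JW18 and well A1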

| Target gene | amplicon | Wolbachia per cell robust z, rep 1 | Wolbachia per cell robust z, rep 2 | Wolbachia per cell robust z, rep 3 |
| --- | --- | --- | --- | --- |
| CG17777 (GeneID 50374) | DRSC18137 | -4.25 | 0.964 | -0.22 |
| FASN2 (GeneID 117361) | DRSC00167 | -1.08 | -1.15 | -0.575 |
| FASN2 (GeneID 117361) | DRSC00610 | -0.21 | -0.528 | -1.78 |
| CG7800 (GeneID 40963) | DRSC16315 | 1.29 | 0.366 | -0.619 |
| CG7800 (GeneID 40963) | DRSC27419 | -1.15 | -0.349 | -4.32 |
| qkr58E-2 (GeneID 37562) | DRSC04710 | 0.0548 (active) | -2.16 | -4.55 |
| qkr58E-2 (GeneID 37562) | DRSC25296 | 0.486 | 0.316 | 1.6 |
| Ras85D (GeneID 41140) | DRSC16814 | -3.63 (active) | 2.27 | 3.43 |
| Ras85D (GeneID 41140) | DRSC39132 | -2.4 | 0.188 | 0.13 |
| RpS14a (GeneID 47218) | DRSC18710 | 2.11 | 2.47 | 2.98 |
| Catsup (GeneID 48805) | DRSC03288 | 0.394 | -0.652 | -0.48 |
| Catsup (GeneID 48805) | DRSC25727 | -0.0709 | 0.327 | 0.0658 |
| CG13443 (GeneID 37351) | DRSC06403 | 0.504 | 0.214 | 0.858 |
| kay (GeneID 3772082) | DRSC13962 | 0.0849 | -1.58 | -0.175 |
| kay (GeneID 3772082) | DRSC16977 | 3.1 (active) | 3.41 | 3.07 |
| kay (GeneID 3772082) | DRSC40688 | 0.487 | -0.994 | 1.38 |
| Cnx14D + Cnx99A | DRSC16610 | -5.39 | -0.793 | -3.84 |
| CG30413 (GeneID 246601) | DRSC04001 | -0.339 | 0.132 | -0.559 |
| CG30413 (GeneID 246601) | DRSC29520 | -0.98 | 1.12 | -4.12 |
| CG30148 (GeneID 37318) | DRSC06391 | 1.03 | 0.843 | 0.783 |
| RpS8 (GeneID 43532) | DRSC16318 | 2.33 (active) | 1.51 | 1.32 |
| smp-30 (GeneID 41786) | DRSC17059 | -5.47 | 0.255 | 0.248 |
| smp-30 (GeneID 41786) | DRSC26913 | -0.586 | -0.939 | -0.922 |
| U3-55K (GeneID 3346176) | DRSC05982 | 0.511 | 0.63 | 1.14 |
| U3-55K (GeneID 3346176) | DRSC29090 | 0.104 | 0.187 | 1.84 |
| CG6144 (GeneID 34443) | DRSC02934 | -1.42 | 0.796 | -0.985 |
| CG31642 (GeneID 326149) | DRSC02919 | -3 | -0.0239 | 0.124 |
| CG31642 (GeneID 326149) | DRSC26391 | -0.0751 | 0.222 | 0.805 |
| glu (GeneID 35001) | DRSC03539 | 0.0877 | 1.3 | 0.495 |
| glu (GeneID 35001) | DRSC26151 | 1.23 | 0.215 | 1.04 |
| Cht10 (GeneID 3355116) | DRSC03766 | -1.1 | -0.632 | -0.117 |
| Cht10 (GeneID 3355116) | DRSC03767 | 0.177 | 0.455 | 0.756 |
| Cht10 (GeneID 3355116) | DRSC03768 | 0.676 | 0.354 | 2.32 |

Next part, starting with the last 12 of the part before.
| Target gene | amplicon | Wolbachia per cell robust z, rep 1 | Wolbachia per cell robust z, rep 2 | Wolbachia per cell robust z, rep 3 |
| --- | --- | --- | --- | --- |
| smp-30 (GeneID 41786) | DRSC17059 | -5.47 | 0.255 | 0.248 |
| smp-30 (GeneID 41786) | DRSC26913 | -0.586 | -0.939 | -0.922 |
| U3-55K (GeneID 3346176) | DRSC05982 | 0.511 | 0.63 | 1.14 |
| U3-55K (GeneID 3346176) | DRSC29090 | 0.104 | 0.187 | 1.84 |
| CG6144 (GeneID 34443) | DRSC02934 | -1.42 | 0.796 | -0.985 |
| CG31642 (GeneID 326149) | DRSC02919 | -3 | -0.0239 | 0.124 |
| CG31642 (GeneID 326149) | DRSC26391 | -0.0751 | 0.222 | 0.805 |
| glu (GeneID 35001) | DRSC03539 | 0.0877 | 1.3 | 0.495 |
| glu (GeneID 35001) | DRSC26151 | 1.23 | 0.215 | 1.04 |
| Cht10 (GeneID 3355116) | DRSC03766 | -1.1 | -0.632 | -0.117 |
| Cht10 (GeneID 3355116) | DRSC03767 | 0.177 | 0.455 | 0.756 |
| Cht10 (GeneID 3355116) | DRSC03768 | 0.676 | 0.354 | 2.32 |
| CG14304 (GeneID 42232) | DRSC25016 | 0.522 | 0.936 | 0.745 |
| CG13239 (GeneID 40503) | DRSC11694 | -0.112 | -0.981 | 0.886 |
| CG14883 (GeneID 41997) | DRSC15007 | 0.173 | -0.202 | 0.879 |
| TotZ (GeneID 117459) | DRSC13450 | 0.855 | 0.526 | -1.19 |
| zfh1 (GeneID 43650) | DRSC17098 | 6.78 (active) | 6.54 | 6.14 |
| zfh1 (GeneID 43650) | DRSC26931 | 4.73 (active) | 7.78 | 8.14 |
| CG13991 (GeneID 33868) | DRSC02323 | -0.0225 | -0.198 | 0.164 |
| CG43386 (GeneID 31929) | DRSC17980 | -0.788 | -1.57 | 0.525 |
| Helz (GeneID 39613) | DRSC11072 | 0.281 | -3.13 | -0.383 |
| Helz (GeneID 39613) | DRSC41357 | -0.251 | -1.33 | -0.579 |
| a5 (GeneID 33317) | DRSC00798 | 1.17 | 0.862 | -0.448 |
| Cpr76Bc (GeneID 40122) | DRSC11062 | -1.39 | 0.347 | 0.114 |
| Cpr76Bc (GeneID 40122) | DRSC27478 | 0.624 | -0.343 | 0.134 |
| GstE2 (GeneID 37107) | DRSC06672 | -0.659 | -0.655 | -1.41 |
| GstE2 (GeneID 37107) | DRSC29733 | 1.46 | -0.455 | 0.546 |
| ttm3 (GeneID 35437) | DRSC03736 | 0.845 | 2.01 | 0.458 |
| Osi22 (GeneID 41632) | DRSC16442 | -0.305 | 1.13 | 1.17 |
| Osi22 (GeneID 41632) | DRSC27176 | 0.794 | 1.27 | 1.43 |
| Su(dx) (GeneID 33379) | DRSC00791 | 0.519 | -0.00485 | 0.215 |
| Su(dx) (GeneID 33379) | DRSC26192 | -0.0953 | 0.206 | 0.448 |
| gas (GeneID 37572) | DRSC04521 | -0.185 | 0.282 | -1.9 |
| Stim (GeneID 32556) | DRSC20158 | -0.708 | -1.23 | 2.18 |
| Ppcs (GeneID 42295) | DRSC14127 | -3.13 (active) | -2.01 | -7.94 |
| CG15914 (GeneID 32542) | DRSC19739 | 1.64 | -0.536 | -3.45 |
| CG34291 + asRNA:CR31084 | DRSC38762 | -1.05 | -0.944 | -2.34 |
| yellow-e (GeneID 41653) | DRSC12966 | -2.87 | -2.51 | -7.44 |
| yellow-e (GeneID 41653) | DRSC16563 | -4.51 | -1.4 | -0.705 |
| MSBP (GeneID 32548) | DRSC20146 | -0.196 | 0.215 | 0.281 |
| CG15599 (GeneID 32503) | DRSC19668 | -1.32 | 0.609 | -4.02 |
| O-fut1 (GeneID 36564) | DRSC06138 | -1.04 | -0.313 | 1.01 |
| O-fut1 (GeneID 36564) | DRSC26476 | -2.06 | -0.57 | -0.805 |
| RpL8 (GeneID 44251) | DRSC08532 | 2.43 | 1.35 | 0.326 |
| RpL8 (GeneID 44251) | DRSC08695 | 0.905 | 1.54 | 1.06 |
| RpL8 (GeneID 44251) | DRSC29905 | 1.95 (active) | 2.4 | 2.79 |
| CG3907 (GeneID 37832) | DRSC04432 | -4.59 (active) | -1.19 | -6.98 |
| robl (GeneID 36963) | DRSC07674 | -2.64 | -1.2 | -1.12 |
| tctn + B9d2 | DRSC03160 | 0.154 | -1.05 | -0.768 |
| tos (GeneID 35119) | DRSC03624 | -1.2 | 0.452 | -0.388 |
| Pebp1 (GeneID 42644) | DRSC15354 | -1.56 | -5.53 | -1.23 |
| CG13840 (GeneID 42705) | DRSC23279 | 0.668 | 0.536 | 0.881 |
| CG13840 (GeneID 42705) | DRSC28749 | 0.435 | 0.447 | -2.31 |
| CG3625 (GeneID 33198) | DRSC00621 | 0.83 | 0.307 | 0.695 |
| CG17267 (GeneID 42454) | DRSC15207 | 0.617 | -0.215 | -0.516 |
| INPP5E (GeneID 39404) | DRSC09723 | -2.08 (active) | -4.71 | -1.96 |
| CG40045 (GeneID 3355079) | DRSC21232 | 0.863 | 0.102 | 1.27 |
| RyR (GeneID 49090) | DRSC07543 | -0.113 | 0.347 | -0.967 |
| CG31681 (GeneID 318882) | DRSC00107 | 0.218 | 0.475 | 0.352 |
| CG31681 (GeneID 318882) | DRSC25893 | -0.488 | -0.328 | -0.568 |
| Cbp53E (GeneID 36905) | DRSC07356 | -1.8 (active) | -6.01 | -2.52 |
| Cbp53E (GeneID 36905) | DRSC24679 | -0.298 | 0.613 | 0.734 |
| Cbp53E (GeneID 36905) | DRSC38954 | -0.326 | 0.206 | 0.27 |
| Sox100B (GeneID 45039) | DRSC15090 | -3.52 | -3.15 | 0.0984 |
| Sox100B (GeneID 45039) | DRSC23485 | 0.923 | -0.722 | 1.16 |
| CG2930 (GeneID 31341) | DRSC17730 | 0.0827 | -6.53 | -0.338 |
| CG2930 (GeneID 31341) | DRSC26303 | 0.737 | -0.296 | 1.27 |
